Non-standard residues stand in square brackets, D forms with d. *: point of attachment. Boc = CC(C)(C)OC(=O)*; Aib = CC(C)(N)C(=O)O
Experiment: general procedure: solution-phase peptide synthesis; morpho-CDI/HOBt; DCC/HOBT; BOP; isobutyl chloroformate

Substance: Boc--AiB--Ser--Phe--Val--OH
- step yield (late stage modification step): 84%

Substance: Boc-[Aib]SFV-OMe
- step yield (coupling step): 72%

From patent US5145951A (priority 1990, dated 1992)
